# Measurements as given in ChEMBL document CHEMBL3137667, “[Drug-induced liver injury; fourteenth updated edition of the bibliographic database of liver injuries and related drugs]” (Gastroenterol Clin Biol, 2004).
# Key:
# [1] = human
# [2] = human; remark: listed apart in the source
# 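Throughout, for Hepatotoxicity (granulomatous hepatitis): value is a count of indexed literature references reporting granulomatous liver disease confirmed by histopathology.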
# 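Throughout, for Hepatotoxicity (severe hepatitis): human clinical data: severe hepatitis, meaning potentially life-threatening liver failure or clinically observed cases, the value counts how many indexed literature references report it.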
sequence,measurement,setting,value
FLUPENTIXOL,Hepatotoxicity (severe hepatitis),[1],1
same,Hepatotoxicity (granulomatous hepatitis),[2],0
